Reference: paper PMC6724046 (Viruses, 2019)

Test system: CPV
Assay: 50% antiviral efficacy concentration (EC50) assay, CPE-based
Format: cell-based, Canine parvovirus
Conditions: selectivity index, CC50/EC50

SMILES | SI
Cc1cc(C(C#N)c2ccc(Cl)cc2)c(Cl)cc1NC(=O)c1cc(I)cc(I)c1[O-].[Na+] (stereo not shown) [Closantel Sodium] | 3.17
Cc1cc(C(C#N)c2ccc(Cl)cc2)c(Cl)cc1NC(=O)c1cc(I)cc(I)c1O (stereo not shown) [Closantel] | 1.76
Nc1nc(Cl)nc2c1ncn2[C@H]1C[C@H](O)[C@@H](CO)O1 [Cladribine] | 125.66
O=c1[nH]c(=O)n([C@H]2C[C@H](O)[C@@H](CO)O2)cc1C(F)(F)F [Trifluridine] | >17.11
